## Positions that govern dimerization of the HIV-1 5' RNA

From the data files of Ye et al. 2022, doi:10.1038/s41594-022-00746-2.

Sequence of the HIV-1 NL4-3 5' RNA, positions 1 to 437, as numbered in the source:
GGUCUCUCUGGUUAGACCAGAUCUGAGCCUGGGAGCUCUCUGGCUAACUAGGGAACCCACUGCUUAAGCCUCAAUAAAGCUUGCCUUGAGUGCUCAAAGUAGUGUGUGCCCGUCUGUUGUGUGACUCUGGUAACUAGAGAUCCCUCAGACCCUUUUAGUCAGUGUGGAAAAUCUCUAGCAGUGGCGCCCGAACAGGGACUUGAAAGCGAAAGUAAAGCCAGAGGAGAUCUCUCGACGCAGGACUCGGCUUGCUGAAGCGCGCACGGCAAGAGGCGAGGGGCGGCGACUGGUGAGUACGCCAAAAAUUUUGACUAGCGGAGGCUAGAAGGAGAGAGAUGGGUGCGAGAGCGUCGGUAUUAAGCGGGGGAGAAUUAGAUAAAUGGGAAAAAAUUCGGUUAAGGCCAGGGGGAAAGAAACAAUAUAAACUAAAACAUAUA

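Randomly mutated transcripts starting with one, two or three G (1G, 2G, 3G), capped or uncapped, were folded for 30 min at 37 °C. Monomer and dimer bands were cut from native gels after folding in high salt (300 mM KCl, 5 mM MgCl2) or low salt (40 mM KCl, 0.1 mM MgCl2). Mutation frequencies in the two bands give Kdimer.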

Scale: median log2 Kdimer over the changes at a position; positive = changes inhibit dimerization, negative = changes enhance it. One numbering serves 1G, 2G and 3G. A position is written with its base where known. Bases beyond 437 are not listed in the source.

position | domain | 3G uncapped high-salt | 1G capped low-salt | 3G uncapped low-salt
C40 | TAR | 0.04 | -0.02 | -0.02
G52 | TAR | 0.01 | 0.08 | -0.08
C56 | TAR | -0.09 | -0.03 | 0.01
C57 | TAR | -0.44 | -0.15 | -0.76
C63 | PolyA | 0.24 | 0.21 | -0.07
A74 | PolyA | 0.06 | 0.08 | 0.14
U75 | PolyA | 0.17 | -0.09 | 0.09
A96 | PolyA | 0.10 | 0.15 | -0.03
U120 | none | 0.06 | 0.32 | 0.97
A124 | none | 0.14 | 0.11 | 0.71
C142 | PBS | 0.07 | 0.01 | 0.23
U145 | PBS | 0.01 | 0.15 | 0.09
C146 | PBS | 0.04 | -0.01 | 0.27
A171 | PBS | 0.15 | -0.04 | 0.33
A180 | PBS | 0.11 | -0.16 | -0.21
G196 | PBS | 0.57 | 0.34 | 0.85
G217 | antiPAS | -0.77 | -1.06 | -1.15
C245 | SL1 | 1.28 | 1.47 | 1.97
G273 | SL1 | -0.47 | -0.57 | -0.57
A302 | none | 0.14 | -0.24 | 0.03
G340 | AUG | 0.04 | -0.24 | 0.81
A345 | none | 0.25 | 0.34 | 0.03
G353 | none | 0.00 | -0.12 | 0.56
A356 | none | 0.01 | -0.06 | -0.06
A374 | none | 0.14 | 0.04 | 0.11
U381 | none | -0.04 | -0.22 | 0.01
A386 | none | -0.04 | 0.03 | -0.05
C393 | none | 0.00 | -0.17 | 0.12
U396 | none | -0.07 | -0.02 | 0.01
G409 | none | 0.00 | -0.09 | -0.02
A428 | none | 0.07 | 0.15 | -0.09
456 | none | -0.02 | -0.07 | -0.08
474 | none | -0.03 | 0.00 | -0.06
481 | none | -0.04 | 0.04 | -0.26
491 | none | 0.14 | -0.08 | -0.10

The opening 5 entries, copied out:

With C40 (domain TAR) the assay gave 3G uncapped high-salt 0.04; 1G capped low-salt -0.02; 3G uncapped low-salt -0.02.
With G52 (domain TAR) the assay gave 3G uncapped high-salt 0.01; 1G capped low-salt 0.08; 3G uncapped low-salt -0.08.
With C56 (domain TAR) the assay gave 3G uncapped high-salt -0.09; 1G capped low-salt -0.03; 3G uncapped low-salt 0.01.
With C57 (domain TAR) the assay gave 3G uncapped high-salt -0.44; 1G capped low-salt -0.15; 3G uncapped low-salt -0.76.
With C63 (domain PolyA) the assay gave 3G uncapped high-salt 0.24; 1G capped low-salt 0.21; 3G uncapped low-salt -0.07.